# PubChem BioAssay AID449762 (Southern Research Specialized Biocontainment Screening …, 2010)
# This is one part of the list. Records with an inconclusive call do not appear. Activity calls are given as the source filed them. No stated cut-off is given here; in the data, inconclusive means inhibition above about 70% without an active follow-up result; inactive means below that.
# Experiment: M. tuberculosis growth inhibition, HTS (AID 449762);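 further: bacterial growth assessed after seven days of incubation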
# Settings: M. tuberculosis H37Rv growth inhibition, 7H9 media; at 25 µM; stronger effect = higher value
row,Compound,inhibition
1,CP(=O)(Oc1ccccc1)OC(c1ccccc1)C(F)(F)F (centres undefined),inactive: -3.18%
2,Cc1cccc(C)c1OP(C)(=O)Nc1ccc(SC(F)(F)F)cc1 (centres undefined),inactive: 6.68%
3,CP(=O)(Nc1ccc(SC(F)(F)F)cc1)Oc1ccc(Cl)cc1 (centres undefined),inactive: 5.56%
4,Cc1cc(C)cc(OP(C)(=O)Nc2ccc(SC(F)(F)F)cc2)c1 (centres undefined),inactive: 5%
5,CCc1ccc(OP(C)(=O)N2CCN(c3ccc([N+](=O)[O-])cc3)CC2)cc1 (centres undefined),inactive: 6.05%
6,CP(=O)(NC(=O)Nc1ccccc1)Oc1ccccc1 (centres undefined),inactive: 5.43%
7,CCOP(C)(=S)SCC(=O)NC(C)C(=O)O (centres undefined),inactive: -3.29%
8,CCOC(=O)c1ccc(NP(C)(=O)Oc2ccc(OC)cc2)cc1 (centres undefined),inactive: -4.52%
9,O=[N+]([O-])c1cc([N+](=O)[O-])c(O)c([N+](=O)[O-])c1.c1ccc(Oc2ccncc2)cc1,inactive: 4.11%
10,CP(=O)(Nc1ccccn1)Oc1ccc(Cl)cc1 (centres undefined),inactive: 2.21%
11,CP(=S)(Nn1cnnc1)Oc1ccccc1 (centres undefined),inactive: -2.36%
12,COc1ccccc1OP(C)(=O)Nc1ccccc1 (centres undefined),inactive: -0.96%
13,CP(=O)(Nc1ccccc1Br)Oc1ccccc1 (centres undefined),inactive: -1.59%
14,O=[N+]([O-])c1cc([N+](=O)[O-])c(Nc2cccnc2)c([N+](=O)[O-])c1,inactive: -0.94%
15,Cc1cccc(C)c1OP(C)(N)=O (centres undefined),inactive: -6.38%
16,CC(C)(C)c1ccc(OP(C)(=O)Nc2ccc(SC(F)(F)F)cc2)cc1 (centres undefined),inactive: 10.7%
17,O=[N+]([O-])c1ccc2c(c1)C=Nc1ccccc1O2,inactive: -0.09%
18,CCOC(=O)c1ccc(NP(C)(=O)Oc2ccccc2)cc1 (centres undefined),inactive: 4.66%
19,Cc1ccc(NP(C)(=O)Oc2ccccc2)c(C)c1 (centres undefined),inactive: -3.5%
20,COc1ccccc1OP(C)(=O)Nc1ccc(C)cc1 (centres undefined),inactive: -4.48%
21,COc1ccc(OP(C)(=O)Nc2cccc(F)c2)cc1 (centres undefined),inactive: -0.69%
22,COc1ccccc1OP(C)(=O)Nc1cc(Cl)ccc1C (centres undefined),inactive: 2.49%
23,Cc1cc(C)cc(OP(C)(N)=O)c1 (centres undefined),inactive: 11.3%
24,CCN(CC)CCCOC(=O)C(O)(c1ccccc1)c1ccccc1,inactive: -7.32%
25,COc1ccccc1OP(C)(=O)Nc1cccc(Br)c1 (centres undefined),inactive: 7.44%
26,Cc1cc(C)cc(OP(C)(=O)Nc2ccc(C)cc2C)c1 (centres undefined),inactive: -3.72%
27,CCOC(=O)c1ccc(NP(C)(=O)Oc2cc(C)cc(C)c2)cc1 (centres undefined),inactive: -5.73%
28,CP(=O)(Nc1cccc(Br)c1)Oc1ccccc1 (centres undefined),inactive: 3.19%
29,Cc1cc(C)cc(OP(C)(=O)Nc2ccccn2)c1 (centres undefined),inactive: 0.42%
